Binding heat detected and binding detectable data for one molecule are collected here from PMC13347698 (Analytical Chemistry, 2026).

Test [1] deals with dimeric C145A 3CL^pro single mutant (Severe acute respiratory syndrome coronavirus 2, UniProt P0DTD1, C3408A). Format: binding, SARS-CoV-2.
The target of test [2] is monomeric E290A/R298A 3CL^pro double mutant (Severe acute respiratory syndrome coronavirus 2, UniProt P0DTD1, E3553A/R3561A). Format: binding, SARS-CoV-2.

As to `O=C(Nc1ccc(N(Cc2ccsc2)C(=O)Cn2nnc3ccccc32)cc1)C1CC1` [ML300], the binding heat detected entry in test [1] is recorded as “No measurable heat was detected”. The binding detectable result in test [2] is “not”.
